A mixed list of measured activities; the numbers were collected in NIAID ChemDB.

All rows: target-level tests; agent: HIV-1; target: Protease; endpoint: inhibition

Conditions beyond the fields shown may differ between rows.

structure,method,tested at,value
CO[C@@H]([C@@H](CC(C)[C@@H]1CC[C@]2(C)C3=CCC4C(C)(C)C(OC(=O)CC(C)(C)CC(=O)O)CC[C@]4(C)C3CC[C@@]12C)OC(C)(C)C)C(C)(C)O,substrate cleavage / fluorescence,100 µg/mL,48.7%
CC(C)CCNC(=O)[C@@H]1O[C@@H]2CN(Cc3ccccc3)C(=O)[C@H]1O2,FRET,10 µM,0%
COc1ccc2[nH]c(=O)c(CNC3CC3)cc2c1,substrate cleavage / fluorescence,20 µM,0.5%
CS(=O)(=O)C[C@H](NC(=O)COc1cccc2ccccc12)C(=O)N[C@@H](Cc1ccccc1)[C@H](O)C(=O)N1CSC[C@H]1C(=O)NCC(N)=O,,0.05 µM,22.1%
CC(C)COC(=O)C(Cc1ccccc1)NC(=O)C(=O)NC(Cc1ccccc1)C(=O)OCC(C)C,absorbance,10 µM,19%
CCC(C)(C)NC(=O)[C@@H]1CSCN1C(=O)[C@@H](O)[C@H](Cc1ccccc1)NC(=O)[C@H](CS(C)(=O)=O)NC(=O)COc1cccc2ccccc12,,0.05 µM,88.3%
CO[C@@H]([C@@H](CC(C)[C@@H]1CC[C@]2(C)C3=CCC4C(C)(C)C(=O)CC[C@]4(C)C3CC[C@@]12C)OC(C)(C)C)C(C)(C)O,substrate cleavage / fluorescence,100 µg/mL,17.1%
COc1ccc2[nH]c(=O)c(CN(C(=O)c3ccccc3)C3CC3)cc2c1,substrate cleavage / fluorescence,20 µM,-7.4%
CC(C)COC(=O)[C@H](Cc1ccccc1)NC(=O)C[C@H](O)C(=O)N[C@@H](Cc1ccccc1)C(=O)OCC(C)C,absorbance,10 µM,29%
CCOC(=O)[C@@]1(C)CC[C@]2(C)CC[C@]3(C)C(=CC(=O)[C@@H]4[C@@]5(C)CC/C(=N\OCc6ccc(C)cc6)C(C)(C)[C@@H]5CC[C@]43C)[C@@H]2C1,substrate cleavage / fluorescence,1000 µg/mL,1%
CC(C[C@@H](O)[C@H](O)C(C)(C)O)[C@@H]1CC[C@]2(C)C3=CCC4C(C)(C)C(=O)CC[C@]4(C)C3CC[C@@]12C,substrate cleavage / fluorescence,100 µg/mL,15.5%
COC(=O)[C@@H](NC(=O)C[C@@H]1CC[C@@H](O)[C@@H]1NC(=O)[C@H](C)NC(=O)OC(C)(C)C)C(C)C,absorbance,10 µM,10%
COc1cccc2cc(CN(C(=O)c3ccccc3)C3CC3)c(=O)[nH]c12,substrate cleavage / fluorescence,20 µM,-3.5%
CC(C)C[C@H](NC(=O)C[C@@H]1CC[C@@H](O)[C@@H]1NC(=O)[C@H](Cc1ccccc1)NC(=O)[C@@H](NC(=O)OCc1ccccc1)C(C)C)C(=O)NC(C)(C)C,absorbance,10 µM,37%
CCOC(=O)N1CCN(C(=O)[C@@H]2O[C@]3(c4ccccc4)CN(C(c4ccccc4)c4ccccc4)C(=O)[C@H]2O3)CC1,FRET,10 µM,0%
CCOC(=O)[C@@]1(C)CC[C@]2(C)CC[C@]3(C)C(=CC(=O)[C@@H]4[C@@]5(C)CC/C(=N\OCc6ccsc6)C(C)(C)[C@@H]5CC[C@]43C)[C@@H]2C1,substrate cleavage / fluorescence,1000 µg/mL,76%
CC(C)(C)NC(=O)[C@H]1N(C(=O)[C@@H](O)[C@H](Cc2ccccc2)NC(=O)[C@H](CC(N)=O)NC(=O)COc2ccccc2Cl)CSC1(C)C,,0.05 µM,97.3%
COc1ccc2[nH]c(=O)c(CNC3CCCC3)cc2c1,substrate cleavage / fluorescence,20 µM,-10.2%
CCOC(=O)[C@@]1(C)CC[C@]2(C)CC[C@]3(C)C(=CC(=O)[C@@H]4[C@@]5(C)CC/C(=N\OCc6cccc7ccccc67)C(C)(C)[C@@H]5CC[C@]43C)[C@@H]2C1,substrate cleavage / fluorescence,1000 µg/mL,26.6%
C[C@@H](CO)NC(=O)[C@@H]1O[C@H]2O[C@@H]1C(=O)N(Cc1ccccc1)[C@@H]2Cc1ccccc1,FRET,1 µM,0%
CC(CNC(=O)[C@@H]1CSCN1C(=O)[C@@H](O)[C@H](Cc1ccccc1)NC(=O)[C@H](CS(C)(=O)=O)NC(=O)COc1cccc2ccccc12)C(N)=O,,0.05 µM,53.5%
CCOC(=O)[C@@]1(C)CC[C@]2(C)CC[C@]3(C)C(=CC(=O)[C@@H]4[C@@]5(C)CC/C(=N\OCc6cc(Br)cc(Br)c6)C(C)(C)[C@@H]5CC[C@]43C)[C@@H]2C1,substrate cleavage / fluorescence,1000 µg/mL,33.6%
CC[C@H](C)[C@H](NC(=O)OC(C)(C)C)C(=O)N[C@H]1CC[C@@H](CC(=O)N[C@H](C(=O)OC)C(C)C)[C@@H]1O,absorbance,10 µM,15%
COc1cccc2cc(CNC3CCCC3)c(=O)[nH]c12,substrate cleavage / fluorescence,20 µM,-18.3%
CC(C)[C@H](N)C(=O)N[C@H](C(=O)N[C@@H](Cc1ccccc1)[C@@H](O)C(=O)N[C@H](Cc1ccccc1)C(=O)N[C@@H](C(=O)N[C@@H](C(N)=O)C(C)C)C(C)C)C(C)C,,1000 µM,71.7%
COC(=O)[C@@H](NC(=O)CC(Cc1ccccc1)C(=O)N[C@H](C(=O)OC)C(C)C)C(C)C,absorbance,10 µM,<10%
O=c1[nH]c2ccccc2cc1CNC1CCCC1,substrate cleavage / fluorescence,20 µM,-63%
CCOC(=O)[C@@]1(C)CC[C@]2(C)CC[C@]3(C)C(=CC(=O)[C@@H]4[C@@]5(C)CC/C(=N\OCC6CCOCC6)C(C)(C)[C@@H]5CC[C@]43C)[C@@H]2C1,substrate cleavage / fluorescence,1000 µg/mL,46.8%
CC(C)(C)NC(=O)[C@H]1N(C(=O)[C@@H](O)[C@H](Cc2ccccc2)NC(=O)[C@H](CC(N)=O)NC(=O)COc2cccc3cccnc23)CSC1(C)C,,0.05 µM,55.9%
CCOC(=O)[C@@]1(C)CC[C@]2(C)CC[C@]3(C)C(=CC(=O)[C@@H]4[C@@]5(C)CC/C(=N\OCc6cccc(F)c6)C(C)(C)[C@@H]5CC[C@]43C)[C@@H]2C1,substrate cleavage / fluorescence,1000 µg/mL,12.5%
CC(C[C@@H](OC(C)(C)C)[C@H](O)C(C)(C)O)[C@@H]1CC[C@]2(C)C3=CCC4C(C)(C)C(=O)C(O)=C[C@]4(C)C3CC[C@@]12C,substrate cleavage / fluorescence,100 µg/mL,43.7%
COC(=O)[C@H](CC(C)C)NC(=O)C[C@@H]1CC[C@H](NC(=O)[C@H](Cc2ccccc2)NC(=O)OC(C)(C)C)[C@H]1O,absorbance,10 µM,38%
CC(C[C@@H](O)[C@H](O)C(C)(C)O)[C@@H]1CC[C@]2(C)C3=CCC4C(C)(C)C(=O)C(O)=C[C@]4(C)C3CC[C@@]12C,substrate cleavage / fluorescence,100 µg/mL,41.4%
O=C(NC1CCCCC1)[C@@H]1O[C@]2(c3ccccc3)CN(C(c3ccccc3)c3ccccc3)C(=O)[C@H]1O2,FRET,10 µM,0%
CC(C)(C)NC(=O)[C@H]1N(C(=O)[C@@H](O)[C@H](Cc2ccccc2)NC(=O)[C@H](CC(N)=O)NC(=O)COc2ccc3ccccc3n2)CSC1(C)C,,0.05 µM,98.2%
CCOC(=O)[C@@]1(C)CC[C@]2(C)CC[C@]3(C)C(=CC(=O)[C@@H]4[C@@]5(C)CC/C(=N\OCc6cc(C)cc(C)c6)C(C)(C)[C@@H]5CC[C@]43C)[C@@H]2C1,substrate cleavage / fluorescence,1000 µg/mL,2.25%
CC(C[C@@H](O)[C@H](O)C(C)(C)O)[C@@H]1CC[C@]2(C)C3=CCC(C(C)(C)C(=O)O)[C@](C)(CC(=O)O)C3CC[C@@]12C,substrate cleavage / fluorescence,100 µg/mL,67.4%
COC(=O)[C@H](CC(C)C)NC(=O)C[C@@H]1CC[C@H](NC(=O)[C@H](C)NC(=O)OC(C)(C)C)[C@H]1O,absorbance,10 µM,13%
CCOC(=O)[C@@]1(C)CC[C@]2(C)CC[C@]3(C)C(=CC(=O)[C@@H]4[C@@]5(C)CC/C(=N\OCc6ccccc6Br)C(C)(C)[C@@H]5CC[C@]43C)[C@@H]2C1,substrate cleavage / fluorescence,1000 µg/mL,34.3%

For reference, 5 entries again:

structure	method	tested at	value
CCOC(=O)[C@@]1(C)CC[C@]2(C)CC[C@]3(C)C(=CC(=O)[C@@H]4[C@@]5(C)CC/C(=N\OCc6cccc7ccccc67)C(C)(C)[C@@H]5CC[C@]43C)[C@@H]2C1	substrate cleavage / fluorescence	1000 µg/mL	26.6%
COC(=O)[C@@H](NC(=O)CC(Cc1ccccc1)C(=O)N[C@H](C(=O)OC)C(C)C)C(C)C	absorbance	10 µM	<10%
CC(C[C@@H](O)[C@H](O)C(C)(C)O)[C@@H]1CC[C@]2(C)C3=CCC(C(C)(C)C(=O)O)[C@](C)(CC(=O)O)C3CC[C@@]12C	substrate cleavage / fluorescence	100 µg/mL	67.4%
CO[C@@H]([C@@H](CC(C)[C@@H]1CC[C@]2(C)C3=CCC4C(C)(C)C(=O)CC[C@]4(C)C3CC[C@@]12C)OC(C)(C)C)C(C)(C)O	substrate cleavage / fluorescence	100 µg/mL	17.1%
CC(C)C[C@H](NC(=O)C[C@@H]1CC[C@@H](O)[C@@H]1NC(=O)[C@H](Cc1ccccc1)NC(=O)[C@@H](NC(=O)OCc1ccccc1)C(C)C)C(=O)NC(C)(C)C	absorbance	10 µM	37%

Inhibition is in % at the dose shown (toxicity tests: loss of growth or viability). An empty or dashed field is not shown.